Compound potency records, mixed from different reports. Data source: NIAID ChemDB in PubChem.

All rows: tests in culture; organism: Cryptococcus neoformans; measure: MIC

Conditions beyond the fields shown may differ between rows.

SMILES | strain | method | value
C=C1C(NC(=O)COc2ccccc2)C2SC(C)(C)C(C=O)N12 | - | - | 50 µg/mL
COc1ccc(/C=C2\CCc3ccccc3C2=O)cc1OC | 93/V | - | 6 µg/mL
Oc1ccccc1N=Cc1ccc(O)c(O)c1O | 96806 | broth dilution | 11.3 µg/mL
CCCCCCCCC[C@@H]1NC(=O)[C@H](CC(C)(C)C)NC(=O)[C@H](CCCN)NC(=O)CNC(=O)C1(F)F | - | - | 4 µg/mL
COc1ccccc1C1C(C#N)=C(N)OC2=C1CSc1ccccc12 | 25 | - | 1.25 µg/mL
CC(=O)NC1=NN(C(C)=O)C2(CC(c3ccc(C)cc3)N(C(C)=O)C(c3ccc(C)cc3)C2)S1 | - | - | >100 µg/mL
C[C@@H](c1ncncc1F)[C@](O)(Cn1cncn1)c1ccc(F)cc1F | Clinical isolate (IM 031631) | broth dilution | 0.03 µg/mL
COc1cc(C2C(C#N)=C(N)OC3=C2CSc2ccccc23)ccc1O | 25 | - | 3 µg/mL
Oc1ccccc1N=Cc1cccc(O)c1O | VM-MCMMPI | broth dilution | 4 µg/mL
O[C@](Cn1cncn1)(Cn1cnc(/C=C/c2ccc(OCC(F)(F)C(F)F)cc2)n1)c1ccc(F)cc1F | TIMM0354 | - | 0.78 µg/mL
CC[C@@]1(O)C[C@H](O[C@H]2C[C@H](N(C)C)[C@H](O[C@H]3C[C@H](O)[C@H](O[C@H]4CCC(=O)[C@H](C)O4)[C@H](C)O3)[C@H](C)O2)c2c(cc3c(c2O)C(=O)c2c(O)cccc2C3=O)[C@H]1C(=O)OC | N-3 | - | 0.6 µg/mL
CCCCCCCCCCCCCCCCCC(=O)NC(CCCN)C(N)=O | ATCC 2344 | broth dilution | >100 µg/mL
CCN(CC)C(=S)SCC(=O)NC1C(=O)N2C(C(=O)O)=C(COC(C)=O)CSC12 | - | - | 250 µg/mL
CCCCCCCCCCCCCC(=O)NC(CCCN)C(=O)NC(CCCN)C(=O)NC(CCCN)C(=O)NC(CCCN)C(N)=O | ATCC 2344 | broth dilution | 12.5 µg/mL
CCCCCCCCCC[C@@H]1CC(=O)NCC(=O)N[C@@H](CCCCN)C(=O)N[C@@H](CC(C)(C)C)C(=O)N1 | - | - | 4 µg/mL
CCOc1nc2c(c(-c3ccc4ccccc4c3)c1C#N)CSc1ccc(Cl)cc1-2 | Farwania | - | 100 µg/mL
CCCCCCCCCCCCCC(=O)NC(CCCN)C(N)=O | ATCC 2344 | broth dilution | >100 µg/mL
CCCCCCCCCCCCCCCCCC(=O)NC1CC(O)C(O)NC(=O)C2C(O)C(C)CN2C(=O)C(C(C)O)NC(=O)C(C(O)C(O)c2ccc(O)cc2)NC(=O)C2CC(O)CN2C(=O)C(C(C)O)NC1=O | MY1051 | - | >128 µg/mL
Oc1ccccc1N=Cc1ccc2c(c1)OCO2 | C-3-1 | broth dilution | 4 µg/mL
COc1ccc(/C=C2\COc3ccccc3C2=O)cc1OC | 25 | - | 25 µg/mL
CCCCCOc1ccc(-c2cc(-c3ccc(C(=O)N[C@H]4C[C@@H](O)[C@@H](O)NC(=O)[C@@H]5[C@@H](O)[C@@H](C)CN5C(=O)[C@H]([C@H](O)CC(N)=O)NC(=O)[C@H]([C@H](O)[C@@H](O)c5ccc(O)c(OS(=O)(=O)O)c5)NC(=O)[C@@H]5C[C@@H](O)CN5C(=O)[C@H]([C@@H](C)O)NC4=O)cc3)no2)cc1 | FMR 8393 | - | 64 µg/mL
CCCCCCCCCCCCCCCC(=O)NC(CCCN)C(=O)NC(CCCN)C(=O)NC(CCCN)C(=O)NC(CCCN)C(N)=O | ATCC 2344 | broth dilution | 3.1 µg/mL
Nc1[nH]c(=O)ncc1F | 316 | - | 8 µg/mL
COc1nc2c(c(-c3ccc4ccccc4c3)c1C#N)CSc1ccc(Cl)cc1-2 | Farwania | - | 25 µg/mL
COc1cc(O)c2c(c1)C(=O)c1c(cc3c(c1O)-c1c(cc(C)c(C(=O)NC(CO)C(=O)O)c1O)[C@H](OC1OC(C)C(N(C)C)C(OC4OCC(O)C(O)C4O)C1O)[C@H]3O)C2=O | IAM 4514 | - | 1.6 µg/mL
CCCCCCCCC[C@@H]1CC(=O)NCC(=O)N[C@@H](CCCCN)C(=O)N[C@@H](CC(C)(C)C)C(=O)N1 | - | - | 8 µg/mL
N#CC1=C(N)OC2=C(CSc3ccc(Cl)cc32)C1c1ccccc1 | Farwania | - | 12.5 µg/mL
CCCCCCCCCCCCCCCCCC(=O)NC(CCCN)C(=O)NC(CCCN)C(N)=O | ATCC 2344 | broth dilution | 25 µg/mL
Oc1ccccc1N=Cc1ccc(F)cc1 | 28JF | broth dilution | 11.3 µg/mL
COC(=O)/C(C)=C1\C(=O)[C@H](O)[C@]2(C)C3=C(C[C@@H]4[C@]5(OC(=O)C6=C5C[C@H]5[C@](O)(COC(=O)/C(C)=C/COC(=O)CCC(=O)OC6)[C@H]6C[C@H]6[C@]45C)[C@H]31)[C@H]1C[C@H]12 | ATCC 22402 | broth dilution | 8 µg/mL
O=C1C[C@@H](c2cccc(O)c2)Cc2cc(O)cc(O)c21 | Clinical isolate H99 | - | >540 µg/mL
C[C@@H](c1nc(-c2ccc(C#N)cc2)cs1)[C@](O)(Cn1cnnc1)c1ccc(F)cc1F | A25838 | - | 0.06 µg/mL
CO[C@@]12OC(=O)C(C)=C1C1=C3[C@](C)([C@@H]4C[C@@H]4[C@@]3(O)C[C@@H]3[C@]14OC(=O)C1=C4C[C@H]4[C@](O)(COC(=O)/C(C)=C/COC(=O)CCC(=O)OC1)[C@H]1C[C@H]1[C@]34C)[C@H]2O | ATCC 22402 | broth dilution | 128 µg/mL
CCCCCCCCCCC[C@H]1NC(=O)[C@H](CC(C)(C)C)NC(=O)[C@H](CCCCN)NC(=O)CNC(=O)[C@@H]1C | - | - | 8 µg/mL
COCCOCCOCCOCCOCCOCCNC(=O)[C@H]1[C@@H]2C[C@@H](O[C@@H]3O[C@H](C)[C@@H](O)[C@H](N)[C@@H]3O)/C=C/C=C/C=C/C=C/C=C/C=C/C=C/[C@H](C)[C@@H](O)[C@H](C)[C@H](C)OC(=O)C[C@H](O)C[C@H](O)[C@@H](O)CC[C@H](O)C[C@H](O)C[C@](O)(C[C@@H]1O)O2 | 3 strains | - | 3.2 µg/mL
CC(=O)OCC1=C(C(=O)O)N2C(=O)C(NC(=O)CSC(=O)N3CCCCC3)C2SC1 | - | - | >250 µg/mL
NC(=O)C1=C(O)OC2=C(CSc3ccccc32)C1c1ccccc1 | 93/V | - | 100 µg/mL
CC(=O)NC1=NN(C(C)=O)C2(CC(c3ccc(C)cc3)N(C(C)=O)C(c3ccc(C)cc3)C2C)S1 | - | - | >100 µg/mL
Oc1cccc(C=Nc2ccccc2O)c1 | WP | broth dilution | 4 µg/mL
N#CC1=C(N)OC2=C(CSc3ccc(Cl)cc32)C1c1ccc2c(c1)OCO2 | Farwania | - | 6 µg/mL
O=C1C[C@@H](c2cccc(F)c2)Cc2cc(O)cc(O)c21 | Clinical isolate H99 | - | 55 µg/mL
O=[N+]([O-])c1ccc(C=Nc2ccccc2O)cc1 | 5396 | broth dilution | 22.6 µg/mL
CC(=O)OCC1=C(C(=O)O)N2C(=O)C(NC(=O)CSC(=O)N3CCOCC3)C2SC1 | - | - | >250 µg/mL
CC1=C2C[C@@H]3[C@](C)(CCC[C@@]3(C)O)C[C@]2(O)OC1=O | ATCC 22402 | broth dilution | >256 µg/mL
COc1nc2c(c(-c3ccccc3)c1C#N)CSc1ccccc1-2 | 93/V | - | 50 µg/mL
CCCCCCCCOc1ccc(C(=O)NC2C[C@@H](O)[C@@H](O)NC(=O)C3[C@@H](O)[C@@H](C)CN3C(=O)C(C(C)O)NC(=O)C([C@H](O)[C@@H](O)c3ccc(O)cc3)NC(=O)C3C[C@@H](O)CN3C(=O)C(C(C)O)NC2=O)cc1 | MY1146 | - | >128 µg/mL
O=C1C[C@@H](c2ccc(F)c(Cl)c2)Cc2cc(O)cc(O)c21 | Clinical isolate H99 | - | 31 µg/mL
O=C1/C(=C/c2ccc(O)cc2)CCc2ccccc21 | Farwania | - | 100 µg/mL
COc1ccc(C2C(C#N)=C(N)OC3=C2CSc2ccccc23)cc1 | 93/V | - | 5 µg/mL
COc1ccc(/C=C2\CCc3ccccc3C2=O)cc1 | 25 | - | 100 µg/mL
CO[C@@H]1[C@@H](C)O[C@@H](OCC23CC4C(C)CCC4C4(C=O)CC2C=C(C(C)C)C43C(=O)O)[C@@H](O)C12OC(=O)[C@H](CCCCCCCC(=O)O)O2 | ATCC66031 | - | 100 µg/mL
CCCCCCCCCC(=O)NC(CCCN)C(N)=O | ATCC 2344 | broth dilution | >100 µg/mL
CC1=C2C3=C4[C@@](C)(C(=O)[C@]2(O)OC1=O)[C@@H]1C[C@@H]1[C@@]4(O)C[C@@H]1[C@]32OC(=O)C3=C2C[C@H]2[C@](O)(COC(=O)/C(C)=C/COC(=O)CCC(=O)OC3)[C@H]3C[C@H]3[C@]12C | ATCC 22402 | broth dilution | 64 µg/mL

A second listing of 5 rows from above:

SMILES	strain	method	value
COc1ccc(/C=C2\CCc3ccccc3C2=O)cc1OC	93/V	-	6 µg/mL
COc1cc(C2C(C#N)=C(N)OC3=C2CSc2ccccc23)ccc1O	25	-	3 µg/mL
Oc1ccccc1N=Cc1ccc2c(c1)OCO2	C-3-1	broth dilution	4 µg/mL
O=C1/C(=C/c2ccc(O)cc2)CCc2ccccc21	Farwania	-	100 µg/mL
C[C@@H](c1ncncc1F)[C@](O)(Cn1cncn1)c1ccc(F)cc1F	Clinical isolate (IM 031631)	broth dilution	0.03 µg/mL

Blank or dashed fields: not listed here.